Results published in patent publication US20190376053A1.

What was measured:
[1] = biological target: mini-collagen peptide H-Gly-Pro-Arg-Gly-(Pro-Hyp-Gly)12-NH2; experiment: SPR (Biacore), peptide immobilized, equilibrium fit, apparent KD
[2] = biological target: mini-collagen peptide H-Gly-Pro-Arg-Gly-(Pro-Hyp-Gly)12-NH2; experiment: SPR (Biacore); ratio of KD, ColHS2bS3 = 1.00

CBD (s3) derived from the Clostridium histolyticum class II collagenase ColH (from UniProt Q46085 905-1021)
Kd [1]: 752 µM | Ratio [2]: 1.69
